Source: ChEMBL document CHEMBL3988442, “University of Dundee, Small-Polar-MMV Screening Library” (2021).

The filed quantity is “Percent Effect” (%). The controls that fix the scale are not given in the record; negative values are as filed. Many other results are left out here, so strong results are more common than in the screen. Two or more numbers in one place are separate tests of the same structure; such repeats can differ widely. A dash means the value is not listed here; it may have been measured.

A: 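Whole-cell growth test on Mycobacterium tuberculosis, read after 3 days in glucose-containing 7H9 medium; the read-out is not stated. Tested at 50 µM. Direction is inferred from retests: higher values go with more growth inhibition. Of about 69,000 compounds tested this way, about 760 (1.1%) reached 50% or more in at least one test.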
B: 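Whole-cell growth test on Mycobacterium tuberculosis, read after 4 days in a medium based on cholesterol and the lipid DPPC; the read-out is not stated. Tested at 50 µM. Direction is inferred from retests: higher values go with more growth inhibition. About 69,000 compounds were tested under these conditions; 0.54% (about 370) showed 50% or more at least once.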

compound | A | B
Cl.Clc1cccnc1OC1CCNCC1 | -8.566% | -
CC(C)OCCn1nnnc1Cc1ccc(Br)cc1 | 55.01% | 68.8%
CC(C)(O)CNc1ccc(C#N)c(C(F)(F)F)c1 | 0.5897% | -
CCc1ncc(CN(C)C2CCN(C(C)C)CC2)cn1.O=C(O)CC(O)(CC(=O)O)C(=O)O | -8.711% | -3.957%
Cc1ncc2c(n1)CCN(CCCc1nc3ccccc3o1)C2 | -12.58% | -1.766%
O=C(NC1(C(=O)O)CCCCC1)C1Cc2ccccc2O1 (configuration not stated) | 7.164% | -
COc1ccc(C2CC(=O)Nc3nc(N4CCOCC4)sc32)cc1 (configuration not stated) | 41% | -
Cc1[nH]ncc1C(=O)NCC(CO)Cc1ccc(Cl)cc1 (configuration not stated) | -5.282% & 0.6228% | -
Cc1nc(C)c(C(=O)N2CCCc3c(F)cccc32)o1 | - | -4.507%
COc1cccc(-c2noc(-c3ccc(NCCCO)nc3)n2)c1OC | 45.46% | -
Cc1nc(=O)c2ccccc2n1C1=CCN(CC(=O)N2CCCC2)CC1 | -13.12% | -
Cc1cccc2c1CCN(c1cc(N3CCCC3CO)ncn1)C2 (configuration not stated) | 27.37% | -
CC(C)NC(=O)N1CCC(n2ccc(C(F)(F)F)n2)CC1 | -0.6949% & -4.02% | -
Cc1cc(N2CCCC2Cn2nc(C)cc2C)n2ncnc2n1 (configuration not stated) | 1.97% | -
CC(=O)N1CCc2ccc(NC(=O)c3cn(C)nn3)cc2C1 | 24.96% | -
CN1CCC(N(C)CCC(=O)N2CCC(Cc3ccc(F)cc3)CC2)C1 (configuration not stated) | 75.41% | -
Fc1ccc(C(NCc2nnc(C3CC3)o2)C2CCC2)cc1 (configuration not stated) | 44.42% | 43.62%
CNCc1cc(C)n(-c2ccccc2OC)c1C | 55.42% | -
CC(C)c1nnc(CN(C)C(c2ccccc2)c2ccc(F)cc2)o1 (configuration not stated) | 32.54% & 23.07% | -
COc1ccc(NC(C)=O)cc1OCc1cccnc1 | 4.636% | -31.93%
CC(=O)N1CCC(C(=O)Nc2nc(C3CC3)cs2)CC1 | -42.59% | -
COC(=O)N1CCC(Nc2cccc(F)c2C(C)=O)CC1 | 18.68% | 4.569% & 5.06%
c1ccc(-c2noc(CN3CCC(c4ccn[nH]4)CC3)n2)cc1 | 13.62% | -
Nc1cccnc1N1CCC(O)CC1 | -4.086% & -2.819% | -7.457%
Cc1nc(C2CCCN2C(=O)CCCOc2cccc(F)c2)no1 (configuration not stated) | - | 3.083% & -42.32%
O[C@H]1CN(c2nc(-c3ccccc3)no2)C[C@@H]1N1CCOCC1 | 0.01803% | -
O=C(C1CCS(=O)(=O)CC1)N1CCC(Cc2ccc(F)cc2)CC1 | -45.36% | -
CN1CCN(CC(NCc2ccc(F)cc2)c2ccccc2)CC1 (configuration not stated) | -17.62% | -
CS(=O)(=O)N1CCN(c2cc(N3CCCC3CO)ncn2)CC1 (configuration not stated) | 10.09% | -
Cc1nc(CNC2CCc3nc(C(C)C)nn3C2)oc1C (configuration not stated) | - | 6.177%
CCn1c(C2CCN(C(=O)c3cc(C4CC4)on3)CC2)nn(C)c1=O | 13.85% | -
CNC(=O)c1c(C)cccc1NCc1nnc(C2CC2)o1 | - | -7.167%
CN(C)c1cc(C(=O)N2CCCC2c2cnn(C)c2)ccn1 (configuration not stated) | -26.06% | -
COc1ccc(CNC(=O)c2ccc(Br)cn2)cc1 | 40.77% | 45.82%
c1cncc(OC2CCN(CCn3cc4ccccc4n3)CC2)c1 | 11.24% | 3.083%
CC(Cn1cccn1)NCc1csc(-c2ccc(F)cc2)n1 (configuration not stated) | 36.71% | -
N#Cc1cccnc1N1CCC(OCCc2ccccc2)CC1 | 15.25% | -
CCn1nc(C)c(NC(=O)c2cc(NC(=O)C3CC3)n(C)n2)c1C | -3.45% | -
CC(C)N1CC2(CCCN(c3ncc(Cl)cc3F)C2)CCC1=O (configuration not stated) | -2.46% | -
NC(=O)CNC(c1ccccc1)c1ccc(OC(F)F)cc1 (configuration not stated) | 2.603% & -1.4% | -17.36%
Cn1cc(NC(=O)c2ccccn2)cc(Cl)c1=O | - | -8.821%
O=C(NCCCNC(=O)c1ccc(F)cc1F)c1cccc(O)c1 | 33.7% | 8.262%
CC1CCCCN1C(=O)Cn1cnc(C#N)n1 (configuration not stated) | -31.9% & 8.05% | -
Cc1ncc(CN(C)CC(O)c2ccc(OC(F)(F)F)cc2)s1 (configuration not stated) | - | 35.77%
COc1ccccc1C1CC(=O)Nc2nc(N3CCCCC3)sc21 (configuration not stated) | 49.59% | -
Cc1ccc(-c2nc(C(=O)N3CCOCC3)cs2)c(C)c1 | -14.33% | -
CCOc1ccc(CN2C(=O)CC(C)(C)C2=O)nc1 | 1.027% & -15.76% | -
CCCn1cnnc1-c1nc2c([nH]1)CC(c1ccc(Cl)cc1)CNC2=O (configuration not stated) | - | 61.66%
Cc1cc(C)c2ncc(C#N)c(NC3CCN(CC(N)=O)CC3)c2c1 | -19.37% & 27.9% | -
O=C(NC1CC1)c1cnc(-c2noc3cc(N4CCCCC4)ccc23)s1 | -29.9% & -3.89% | -
O[C@@H]1CN(CC2=Cc3cc(Cl)ccc3OC2)CC[C@H]1N1CCCCCC1 | 63.06% | -
CN(C)C(=O)c1nnn(-c2ccc(Br)cc2)n1 | 64.95% | -
O=C(c1ccnn1COc1ccc(Cl)cc1)N1CCSCC1 | 9.147% & 9.725% | -
CCN(CCS(=O)(=O)CC)CC1CCCO1 (configuration not stated) | 0.2509% & -5.106% | 2.561%
Cc1ccccc1-n1c(O)cc(C)c(C#N)c1=O | -23.85% | -3.188%
Cn1cncc1CN1CCCC1c1cncc(Oc2ccc(Cl)cc2)n1 (configuration not stated) | 5.854% | -
Cc1nc(C)c(C(=O)N2CCc3nc4sc(C)cc4c(=O)n3CC2)o1 | -2.472% | -
CC(C)n1ccnc1C1CCN(Cc2ccc(Cl)s2)CC1 | 54.43% | -
CCCNS(=O)(=O)Cc1ccc(Br)cc1 | 16.76% | -
COc1ccc(-n2nnc(C(N)=O)n2)cc1 | 13.29% | -
Cc1ccc(S(=O)(=O)CCC(=O)NCc2nnc3n2CCC3)cc1 | -21.98% | -5.799%
COCc1n[nH]c2c1CN(C(=O)c1ccncc1)C2.O=C(O)C(F)(F)F | 36.56% & 0.3924% | -
CCNc1cc2c(nn1)CCN(C(=O)c1cccc3c1OCCO3)C2 | 14.63% | -
CCC(C)Oc1ccc(CNCCNS(C)(=O)=O)cc1Cl (configuration not stated) | - | 75.46%
Cc1cc(NC(=O)C(C)C)n(-c2nc(C)c(C)c(=O)[nH]2)n1 | 83.18% | -
Fc1ccc(OC2CCN(CCn3cncn3)CC2)cc1 | -8.97% & 1.797% | -10.15%
CN(C)C(=O)c1ccc(NCCNc2ccc3ccccc3n2)nc1 | -82.42% | -55.66%
Cc1nnc2n1CCN(C(=O)c1cc(Br)c[nH]1)C2 | -0.5452% | -
Cc1cccc(NC(=O)C2(n3cnnn3)CCCCC2)n1 | 26.41% | -
O=C(CCc1ccccn1)N1CCSC2(CCCCC2)C1 | 54.06% | -
COCC(=O)N(C)Cc1ccc(Cl)c(Cl)c1 | 6.53% & -1.421% | 6.161%
COc1ccc(CN2CCc3nc(C4CCCCN4C)ncc3C2)cc1 (configuration not stated) | 34.93% | -
CSC1=Nc2c(cnn2-c2ccc(Cl)cc2)C2=NCCCN12 | 37.43% | 45.46%
CCc1cc(=O)[nH]c(-c2ccc(NCCc3ccc(O)cc3)nc2)n1 | 43.22% | 3.713%
Cc1ccc(CNC(=O)c2ccc(F)cc2)o1 | 51.73% & 48.4% | -
NC(=O)C1=NC2=NS(=O)(=O)c3ccccc3N2N1Cc1ccc(Cl)cc1 | 53.43% | 70.54%
CN(Cc1ccncc1)C(=O)NCc1cn(-c2ccccc2)nn1 | -12.4% | -
CCOc1cc(Cl)ccc1CNC(=O)N(C)CC(C)(C)O | -2.512% | -
Cc1noc(C)c1C(=O)N1CCCC(c2cc(C(F)(F)F)[nH]n2)C1 (configuration not stated) | -8.819% & -28.3% | -
CC(NCC1CCN(CCO)CC1)c1ccc(F)c(Cl)c1 (configuration not stated) | -10.03% | -
CC(C)c1noc(CCC(=O)N2CCSCC2)n1 | -4.656% | -
Cc1ncc(C(=O)NCCNC(=O)c2ccccc2)s1 | -11% | -
CC(C)Cc1cc(NC(=O)c2cc(Cl)c[nH]2)n(C)n1 | 56.99% | -
CCOc1ccc2c(c1)C=C(C(=O)NC(C)Cn1cccn1)CO2 (configuration not stated) | -18.12% | -25.38%

For reference, 5 entries once more:

| compound | A | B |
|---|---|---|
| `Cc1ccccc1-n1c(O)cc(C)c(C#N)c1=O` | -23.85% | -3.188% |
| `CC(C)(O)CNc1ccc(C#N)c(C(F)(F)F)c1` | 0.5897% | - |
| `O=C(NCCCNC(=O)c1ccc(F)cc1F)c1cccc(O)c1` | 33.7% | 8.262% |
| `N#Cc1cccnc1N1CCC(OCCc2ccccc2)CC1` | 15.25% | - |
| `CCOc1cc(Cl)ccc1CNC(=O)N(C)CC(C)(C)O` | -2.512% | - |